PubChem BioAssay AID624099 | ICCB-Longwood – 2012
Here is an unselected part of about 21,000 reagents tested. 497 of them (2.4%) were called active. 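Higher z means weaker E2 silencing; only reporter increases were scored, and knock-downs that hurt cell survival may mask genuine repressor factors.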 No sequences are given here.

Aim: 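Knock-downs relieving repression by E2 of an HPV18 LCR luciferase reporter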 (primary screen)
Cell system: human C33A cervical carcinoma cells (HPV-negative) stably expressing BPV1 E2 and an HPV18 LCR luciferase reporter
Reagent: siRNA pool against human genes, 40 nM
Duration: 72 h
Detection: 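HPV18 LCR reporter light per well, converted to plate-wise z-scores that exclude control wells, and averaged over triplicate plates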
Reading the numbers: mean z-score and z-score: higher = stronger reporter signal, weaker E2 silencing
Active means: 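Hit if mean z-score reaches 2 and two or more of three replicate z-scores also reach 2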

CALHM1 | mean z-score = 0.42; z-score, replicate A = 0.37; z-score, replicate B = 1.1; z-score, replicate C = -0.21; Call = inactive
ST6GAL2 | mean z-score = 0.21; z-score, replicate A = 0.2; z-score, replicate B = 0.17; z-score, replicate C = 0.27; Call = inactive
CPN1 | mean z-score = -0.12; z-score, replicate A = -0.11; z-score, replicate B = -0.25; z-score, replicate C = 0.01; Call = inactive
CXCL2 | mean z-score = -0.75; z-score, replicate A = -0.72; z-score, replicate B = -0.78; z-score, replicate C = -0.75; Call = inactive
NPFF | mean z-score = -0.45; z-score, replicate A = -0.66; z-score, replicate B = -0.4; z-score, replicate C = -0.3; Call = inactive
ADARB1 | mean z-score = 0.89; z-score, replicate A = 0.6; z-score, replicate B = 1.29; z-score, replicate C = 0.8; Call = inactive
SLC16A12 | mean z-score = -2; z-score, replicate A = -1.88; z-score, replicate B = -1.89; z-score, replicate C = -2.22; Call = inactive
PPP4R3C | mean z-score = -1.86; z-score, replicate A = -2; z-score, replicate B = -1.87; z-score, replicate C = -1.72; Call = inactive
CBLN1 | mean z-score = 0.47; z-score, replicate A = 0.62; z-score, replicate B = 0.37; z-score, replicate C = 0.41; Call = inactive
RTF1 | mean z-score = 1.13; z-score, replicate A = 0.73; z-score, replicate B = 1.15; z-score, replicate C = 1.51; Call = inactive
CEBPG | mean z-score = -0.65; z-score, replicate A = -0.59; z-score, replicate B = -0.62; z-score, replicate C = -0.73; Call = inactive
LRRC37A2 | mean z-score = -0.08; z-score, replicate A = -0.17; z-score, replicate B = -0.07; z-score, replicate C = 0.01; Call = inactive
MAGEA11 | mean z-score = -0.48; z-score, replicate A = -0.59; z-score, replicate B = -0.55; z-score, replicate C = -0.3; Call = inactive
ATP2A3 | mean z-score = -0.14; z-score, replicate A = -0.33; z-score, replicate B = -0.15; z-score, replicate C = 0.07; Call = inactive
ZCCHC8 | mean z-score = 1.38; z-score, replicate A = 1.6; z-score, replicate B = 1.28; z-score, replicate C = 1.26; Call = inactive
ZDHHC22 | mean z-score = -3.13; z-score, replicate A = -2.7; z-score, replicate B = -3.41; z-score, replicate C = -3.29; Call = inactive
PSG6 | mean z-score = 1.91; z-score, replicate A = 1.56; z-score, replicate B = 2.08; z-score, replicate C = 2.09; Call = inactive
VPS33A | mean z-score = 0.32; z-score, replicate A = 0; z-score, replicate B = 0.37; z-score, replicate C = 0.58; Call = inactive
SELPLG | mean z-score = -0.64; z-score, replicate A = -0.37; z-score, replicate B = -0.73; z-score, replicate C = -0.82; Call = inactive
CREB3L4 | mean z-score = 3.9; z-score, replicate A = 4.24; z-score, replicate B = 4.02; z-score, replicate C = 3.44; Call = active
TECPR2 | mean z-score = 0.56; z-score, replicate A = 0.44; z-score, replicate B = 0.35; z-score, replicate C = 0.88; Call = inactive
SNRPA | mean z-score = 1; z-score, replicate A = 1.08; z-score, replicate B = 0.63; z-score, replicate C = 1.3; Call = inactive
LOC339875 (retired record) | mean z-score = -0.03; z-score, replicate A = -0.28; z-score, replicate B = 0.08; z-score, replicate C = 0.1; Call = inactive
TNFRSF12A | mean z-score = 0.34; z-score, replicate A = 0.17; z-score, replicate B = 0.43; z-score, replicate C = 0.41; Call = inactive
MC1R | mean z-score = -1.4; z-score, replicate A = -1.71; z-score, replicate B = -1.34; z-score, replicate C = -1.15; Call = inactive
CPAP | mean z-score = -0.11; z-score, replicate A = -0.08; z-score, replicate B = 0; z-score, replicate C = -0.26; Call = inactive
TOX3 | mean z-score = 0.17; z-score, replicate A = -0.17; z-score, replicate B = 0.16; z-score, replicate C = 0.53; Call = inactive

In a second layout: results already given.
CEBPG
- mean z-score: -0.65
- z-score, replicate A: -0.59
- z-score, replicate B: -0.62
- z-score, replicate C: -0.73
- Call: inactive

LRRC37A2
- mean z-score: -0.08
- z-score, replicate A: -0.17
- z-score, replicate B: -0.07
- z-score, replicate C: 0.01
- Call: inactive

MAGEA11
- mean z-score: -0.48
- z-score, replicate A: -0.59
- z-score, replicate B: -0.55
- z-score, replicate C: -0.3
- Call: inactive

ATP2A3
- mean z-score: -0.14
- z-score, replicate A: -0.33
- z-score, replicate B: -0.15
- z-score, replicate C: 0.07
- Call: inactive
